In patent publication US6696494B2, “α-hydroxyarylbutanamine inhibitors of aspartyl protease” (Enanta Pharmaceuticals, Inc., priority 2001, dated 2004):

molecular target: HIV-1 protease (Human immunodeficiency virus type 1 group M subtype B, UniProt P04585); assay: Inhibition of microbial expressed viral protease (HIV-1 protease), method of Toth and Marshall; format: biochemical; conditions: read-out: IC50 in μM; Table 1
Description: Biological Assay for Inhibition of Microbial Expressed Viral Protease
The inhibition constants against HIV-1 protease were measured using the method described by M. V. Toth and G. R. Marshall, Int. J. Peptide protein Res., 1990, 544. The method described M. W. Pennington et al., Peptides 1990, Gimet, E. and D. Andrew, Eds., Escom; Leiden, Netherlands (1990) may also be used. The potency is measured as IC50in μM. The person of skill would accept these tests as predictive of the compounds' utility in vivo to treat HIV infected patients.

Row | Compound | IC50
1 | Cc1cc(C)c(OCC(=O)N[C@@H](Cc2ccccc2)[C@H](O)CCc2ccccc2C(=O)NC(C)(C)C)c(C)c1 | < 0.1 µM
2 | CC(C)(C)NC(=O)c1ccccc1CC[C@@H](O)[C@H](Cc1ccccc1)NC(=O)c1cccc(Cl)c1Cl | < 0.1 µM
3 | CC(C)(C)NC(=O)c1ccccc1CC[C@@H](O)[C@H](Cc1ccccc1)NC(=O)c1c(Cl)cccc1Cl | < 0.1 µM
4 | CCOC(=O)N[C@@H](Cc1ccccc1)[C@H](O)CCc1ccccc1C(=O)NC(C)(C)C | < 0.1 µM
5 | CC(C)(C)NC(=O)c1cc(O)ccc1CC[C@@H](O)[C@H](Cc1ccccc1)NC(=O)OC(C)(C)C | > 10 µM
6 | CC(C)(C)OC(=O)N[C@@H](Cc1ccccc1)[C@H](O)CCc1ccccc1C(=O)N[C@@H](CO)c1ccccc1 | 0.1 to 10 µM

same assay, conditions: read-out: IC50 in μM; Table 2

Row | Compound | IC50
7 | Cc1cccc(C)c1OCC(=O)N[C@@H](Cc1ccccc1)[C@H](O)/C=C/c1cccc(F)c1C(=O)NC(C)(C)C | 0.1 to 10 µM
8 | CC(C)(C)NC(=O)c1cc([N+](=O)[O-])ccc1/C=C/[C@@H](O)[C@H](Cc1ccccc1)NC(=O)OC(C)(C)C | 0.1 to 10 µM
9 | Cc1cccc(C)c1OCC(=O)N[C@@H](Cc1ccccc1)[C@H](O)/C=C/c1cccc(C)c1C(=O)NC(C)(C)C | < 0.1 µM
10 | Cc1cccc(C(=O)NC(C)(C)C)c1/C=C/[C@@H](O)[C@H](Cc1ccccc1)NC(=O)COc1c(C)cccc1C | < 0.1 µM
